Measured values from several laboratories, pooled; numbers as filed in NIAID ChemDB.

All rows: whole-cell or culture tests; organism: HIV-1

ECn is the concentration giving n% inhibition of infection, replication or growth.

SMILES,cells,method,setting,strain,endpoint,changes,value
Cc1cn([C@H]2C[C@H](N=[N+]=[N-])[C@@H](CO)O2)c(=O)[nH]c1=O,MT-4,-,-,IIIB,EC50,-,0.0026 µM
Cc1ccc(Cn2c(=O)ccn(CC#N)c2=O)cc1C,PBMC,cytopathic effect,-,IIIB,EC50,-,3.75 µM
O=S(=O)(O)c1ccc(-c2c3nc(c(-c4ccc(S(=O)(=O)O)cc4)c4ccc([nH]4)c(-c4ccc(S(=O)(=O)O)cc4)c4nc(c(-c5ccccc5)c5ccc2[nH]5)C=C4)C=C3)cc1,MAGI,β-galactosidase,-,IIIB,EC50,-,0.5 µg/mL
C#CCn1ccc(=O)n(Cc2cc(C)cc(C)c2)c1=O,PBMC,cytopathic effect,-,IIIB,EC50,-,1.08 µM
CSCCC(OC(=O)[C@@H](N)c1ccccc1-c1c[nH]c2ccccc12)C(C)C,MT-4,MTT,-,NL4-3,EC50,-,25 µM
NCCCc1cn([C@H]2C=C[C@@H](CO)O2)c(=O)[nH]c1=O,CEM,RT activity,-,LAI,EC50,-,480 µM
Oc1cc(O)c2c(c1)O[C@@]1(c3ccc(O)c(O)c3)Oc3cc(O)c4c(c3[C@@H]2[C@H]1O)OC(c1ccc(O)c(O)c1)C(O)C4c1c(O)cc(O)c2c1OC(c1ccc(O)c(O)c1)C(O)C2c1c(O)cc(O)c2c1OC(c1ccc(O)c(O)c1)C(O)C2c1c(O)cc(O)c2c1OC(c1ccc(O)c(O)c1)C(O)C2,PBMC,PCR,-,X4,EC50,-,22.5 µg/mL
O=C(Cc1cn([C@H]2C=C[C@@H](CO)O2)c(=O)[nH]c1=O)NCCCCCCCCNC(=O)c1c2ccccc2nc2ccccc12,CEM,RT activity,-,LAI,EC50,-,>10 µM
CSCC[C@H](OC(=O)[C@@H](N)c1ccccc1-c1c[nH]c2ccccc12)c1ccccc1,MT-4,MTT,-,NL4-3,EC50,-,10 µM
CC(=O)N[C@H](CS(=O)(=O)c1ccc2ccccc2c1)C(=O)N[C@@H](Cc1ccccc1)[C@H](O)Cc1ccccc1C(=O)NC(C)(C)C,MT-2,cytopathic effect / XTT,-,RF,EC50,-,0.03 µM
CSCC[C@H](C)OC(=O)[C@@H](NC(=O)Cc1c[nH]c2ccccc12)c1ccccc1-c1c[nH]c2ccccc12,MT-4,MTT,-,NL4-3,EC50,-,>12 µM
CCCCCCCCCCCCCCCC(=O)NCC1CC(OP(=O)(O)OCC2OC(n3cnc4c(N)ncnc43)C(OP(=O)(O)OCC3OC(n4cnc5c(N)ncnc54)C(O)C3O)C2O)C(n2cnc3c(N)ncnc32)O1,SupT1 + Sup-T1,syncytia,-,IIIB,EC50,-,<100 µM
CCN(CC)C(=O)Oc1ccc2cccnc2c1-c1cccc2cccnc12,TZM-bl,luciferase,pseudotyped,HXB2,EC50,-,0.9 µM
O=S(=O)(O)c1ccc(-c2c3nc(c(-c4ccc(S(=O)(=O)O)cc4)c4ccc([nH]4)c(-c4ccc(S(=O)(=O)O)cc4)c4nc(c(-c5ccc(S(=O)(=O)O)cc5)c5ccc2[nH]5)C=C4)C=C3)cc1,MAGI,β-galactosidase,-,IIIB,EC50,-,<50 µg/mL
COC(=O)[C@H](C)NP(=O)(OC[C@H]1C=C[C@@H](n2cc(CC(=O)NCCCCCCNC(=O)C(F)(F)F)c(=O)[nH]c2=O)O1)Oc1ccccc1,MT-4,-,-,IIIB,EC50,-,>100 µM
CCOC(=O)c1nnsc1Nc1ccccc1Nc1snnc1C(=O)OCC,C8166,p24,-,NL4-3,EC50,-,15 µM
Nc1ccn([C@@H]2O[C@H](COP(=O)(O)O[C@@H]3[C@H](O)[C@@H](COP(=O)(O)O[C@@H]4[C@H](O)[C@@H](COP(=O)(O)O)O[C@H]4n4ccc(N)nc4=O)O[C@H]3n3ccc(N)nc3=O)[C@@H](O)[C@H]2O)c(=O)n1,MT-2,cytopathic effect / neutral red,-,-,EC50,-,30 µM
Cc1cccc(Cn2c(=O)ccn(CC#N)c2=O)c1,PBMC,cytopathic effect,-,IIIB,EC50,-,6.7 µM
COC(=O)[C@H](C)NP(=O)(OC[C@H]1C=C[C@@H](n2cc(CC(=O)NCCCCCCCCCCCCNC(=O)C(F)(F)F)c(=O)[nH]c2=O)O1)Oc1ccccc1,CEM,RT activity,-,LAI,EC50,-,>10 µM
Cc1ccccc1Cn1c(=O)ccn(CC#N)c1=O,PBMC,cytopathic effect,-,IIIB,EC50,-,192 µM
NCCC[C@@H](N)CC(=O)NCN,MT-4,antigen,-,IIIB,EC50,-,0.2 µg/mL
COC(=O)[C@H](C)NP(=O)(OC[C@@H]1C=C[C@H](n2cc(CC(=O)NCCCCCCNC(=O)C(F)(F)F)c(=O)[nH]c2=O)O1)Oc1ccccc1,MT-4,-,-,IIIB,EC50,-,10 µM
Cc1[nH]c2ccc3c(c2c(=O)c1O[C@@H]1O[C@H](CO)[C@@H](O)[C@H](O)[C@H]1O)[C@@H]1CC[C@H](O)[C@@]3(c2ccccc2)O1,CEM,MTT,-,-,EC50,-,>100 µM
COc1c(OCc2ccccc2)c(OCc2ccccc2)cc(CO)c1-c1c(CO)c(Br)c(OCc2ccccc2)c(OCc2ccccc2)c1OC,H9,p24,-,IIIB,EC50,-,>100 µg/mL
COc1ccc(N(CC(=O)NCCCc2ccccc2)S(=O)(=O)c2ccc(Cl)c([N+](=O)[O-])c2)cc1,-,-,-,IIIB,EC50,Q148R,42 µM
O=C1OCC2OC(O)C(O)C(O)C2OC(=O)c2cc(O)c(O)c(O)c2-c2c(O)c(O)c3oc(=O)c4c(c(O)c(O)c5oc(=O)c2c3c54)-c2c1cc(O)c(O)c2O,H9,p24,-,IIIB,EC50,-,2.5 µg/mL
Cc1cc(C)cc(Oc2c(C(C)C)c(=O)[nH]c(=O)n2Cc2ccc3ccccc3c2)c1,MT-4,cytopathic effect / MTT,-,-,EC50,-,0.015 µg/mL
N#CCn1ccc(=O)n(Cc2cc(Cl)cc(Cl)c2)c1=O,PBMC,cytopathic effect,-,IIIB,EC50,-,0.77 µM
CC(C)C1=C2[C@H]3CC[C@@H]4[C@@]5(C)CC[C@H](OC(=O)[C@H]6C[C@@H](C(=O)O)C6(C)C)C(C)(C)[C@@H]5CC[C@@]4(C)[C@]3(C)CC[C@@]2(CC(=O)NCc2ccc(Cl)cc2)CC1=O,MT-2,p24 / ELISA,-,92HT599,EC50,-,<1 µM
Nc1ccn([C@@H]2O[C@H](COP(=O)(O)O[C@@H]3[C@H](O)[C@@H](COP(=O)(O)O[C@@H]4[C@H](O)[C@@H](CO)O[C@H]4n4ccc(N)nc4=O)O[C@H]3n3ccc(N)nc3=O)[C@@H](O)[C@H]2O)c(=O)n1,MT-2,cytopathic effect / neutral red,-,-,EC50,-,28 µM
Nc1nc2c(ncn2[C@@H]2OC[C@H](/C=C/P(=O)(O)O)C23CC3)c(=O)[nH]1,PBMC,RT activity,-,LAV-1,EC90,-,95 µM
Cc1cn(CCO[C@@H]2O[C@H](CO)[C@@H](N=[N+]=[N-])[C@H]2O)c(=O)[nH]c1=O,MT-4,cytopathic effect,-,IIIB,EC50,-,>100 µg/mL
COC(=O)[C@H](C)NP(=O)(OC[C@@H]1C=C[C@H](n2cc(CC(=O)NCCCCCCCCNC(=O)C(F)(F)F)c(=O)[nH]c2=O)O1)Oc1ccccc1,MT-4,-,-,IIIB,EC50,-,>100 µM
NCC1OC(n2cnc3c(N)ncnc32)C(OP(=O)(O)OCC2OC(n3cnc4c(N)ncnc43)C(OP(=O)(O)OCCOCn3cnc4c(N)ncnc43)C2O)C1O,SupT1 + Sup-T1,syncytia,-,IIIB,EC50,-,>100 µM
O=C(Cc1cn([C@H]2C=C[C@@H](CO)O2)c(=O)[nH]c1=O)NCCCCCCCCCCCCNC(=O)c1c2ccccc2nc2ccccc12,MT-4,-,-,IIIB,EC50,-,>10 µM
O=c1[nH]c(=O)n([C@@H]2CO[C@H](CO)O2)cc1I,MT-2,cytopathic effect / MTT,-,IIIB,EC50,-,>100 µM
C[C@H](Cn1cnc2c(N)ncnc21)OCP(=O)(O)O,PBMC,p24 / ELISA,-,92US660,EC50,-,4.35 µM
COCCNC(=O)COC(=O)c1c2c(nc3ccccc13)/C(=C/c1ccc(O)cc1)CCC2,HEK 293,β-galactosidase / GFP / reporter gene,-,-,EC50,-,5 µM
COC(=O)Cc1cn([C@@H]2C=C[C@H](COP(=O)(N[C@@H](C)C(=O)OC)Oc3ccccc3)O2)c(=O)[nH]c1=O,MT-4,-,-,IIIB,EC50,-,>100 µM
CCC(CCSC)OC(=O)[C@@H](N)c1ccccc1-c1c[nH]c2ccccc12,MT-4,MTT,-,NL4-3,EC50,-,7.6 µM

The last 2 rows once more:

SMILES | cells | method | setting | strain | endpoint | changes | value
COC(=O)Cc1cn([C@@H]2C=C[C@H](COP(=O)(N[C@@H](C)C(=O)OC)Oc3ccccc3)O2)c(=O)[nH]c1=O | MT-4 | - | - | IIIB | EC50 | - | >100 µM
CCC(CCSC)OC(=O)[C@@H](N)c1ccccc1-c1c[nH]c2ccccc12 | MT-4 | MTT | - | NL4-3 | EC50 | - | 7.6 µM

Conditions beyond the fields shown may differ between rows. An empty or dashed field is not shown.